Measured data: PubChem BioAssay AID624099 (ICCB-Longwood, 2012)
Assay: 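Human genes that papillomavirus E2 requires to repress the HPV18 LCR promoter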 (primary screen). System: human C33A cervical carcinoma cells (HPV-negative) stably expressing BPV1 E2 and an HPV18 LCR luciferase reporter. Reagent: siRNA pool against human genes, 40 nM. Time to read-out: 72 h. Measurement: 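Per-well luciferase luminescence, z-scored on each plate against the plate mean and SD with control wells left out, then averaged across three replicate plates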. Reading the numbers: mean z-score and z-score: higher = stronger reporter signal, weaker E2 silencing. Active means: 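Hit if mean z-score reaches 2 and two or more of three replicate z-scores also reach 2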.
The deposit covers about 21,000 reagents; below is a random part of them. 497 of them (2.4%) count as active. 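Higher z means weaker E2 silencing; only reporter increases were scored, and knock-downs that hurt cell survival may mask genuine repressor factors.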 A number with no mark means an inactive call. Reagent sequences are not shown.

| gene symbol | mean z-score | z-score, replicate A | z-score, replicate B | z-score, replicate C |
| --- | --- | --- | --- | --- |
| RNASEL | 0.51 | 0.5 | 0.82 | 0.2 |
| LAP3 | 0.51 | 0.31 | 0.62 | 0.61 |
| LGR4 | 0.64 | 0.36 | 0.67 | 0.89 |
| CREBBP | 1.71 | 1.66 | 1.77 | 1.69 |
| FAM180A | -1.43 | -1.56 | -1.7 | -1.03 |
| DCHS2 | -0.58 | -0.51 | -0.89 | -0.32 |
| PPIL3 | -0.78 | -0.58 | -0.53 | -1.24 |
| TBCC | 1.31 | 1.24 | 1.46 | 1.23 |
| OSMR | 1.08 | 1.45 | 1.02 | 0.79 |
| GDAP1L1 | -0.56 | -0.48 | -0.58 | -0.63 |
| DUOX1 | -0.43 | -0.3 | -0.34 | -0.65 |
| JMY | 1.45 | 1.61 | 1.11 | 1.64 |
| ANKRD13B | -0.09 | -0.06 | -0.27 | 0.06 |
| CD63 | 0.56 | 0.61 | 0.44 | 0.63 |
| STIM2 | 1.02 | 1.3 | 0.6 | 1.16 |
| MAIP1 | -0.46 | -0.93 | -0.63 | 0.18 |
| GSTP1 | 0.63 | 0.55 | 0.75 | 0.58 |
| OR6B3 | 1.4 | 1.84 | 1.32 | 1.02 |
| ZNF608 | 0.18 | 0.01 | 0.31 | 0.22 |
| EIF3J | -0.22 | -0.29 | -0.14 | -0.22 |
| NRXN2 | -0.12 | -0.44 | 0.08 | 0 |
| OR6B2 | -0.64 | -0.77 | -0.62 | -0.51 |
| LINC02687 | 1.29 | 1.58 | 1.24 | 1.04 |
| SP3 | 2.82 (active) | 2.73 | 3.13 | 2.61 |
| LRRN4 | 0.28 | 0.15 | 0.36 | 0.34 |
| SLC1A1 | 0.2 | 0.06 | 0.19 | 0.36 |
| PIKFYVE | -0.46 | -0.81 | -0.54 | -0.02 |
| LINC00705 | 0.08 | -0.05 | 0.2 | 0.1 |
| SMC1A | -0.41 | -0.61 | -0.38 | -0.24 |
| CYTL1 | 0.09 | 0.03 | 0.16 | 0.07 |
| FCGR2B | -0.44 | -0.4 | -0.39 | -0.53 |
| SUV39H2 | -0.09 | -0.03 | -0.16 | -0.07 |

Entries listed above called active:
| gene symbol | mean z-score | z-score, replicate A | z-score, replicate B | z-score, replicate C |
| --- | --- | --- | --- | --- |
| SP3 | 2.82 (active) | 2.73 | 3.13 | 2.61 |

Additional reagents follow:
| gene symbol | mean z-score | z-score, replicate A | z-score, replicate B | z-score, replicate C |
| --- | --- | --- | --- | --- |
| ZNF232 | -0.04 | -0.17 | 0.18 | -0.13 |
| PRR18 | 0.99 | 1.13 | 0.92 | 0.93 |
| LINC02153 | -0.25 | -0.24 | -0.03 | -0.49 |
| LCP2 | 0.37 | 0.28 | 0.28 | 0.56 |
| ANXA8L1 | -1.32 | -1.14 | -1.3 | -1.51 |
| SH2D4B | 0.51 | 0.65 | 0.79 | 0.1 |
| MICB | 0.27 | 0.23 | 0.41 | 0.16 |
| ZCCHC17 | -0.72 | -0.52 | -1.06 | -0.57 |
| OR5L2 | -1.13 | -0.97 | -1.39 | -1.02 |
| TEKT1 | 0.77 | 0.54 | 0.81 | 0.97 |
| COQ5 | -0.32 | -0.33 | -0.26 | -0.37 |
| BAIAP2L2 | -0.7 | -0.65 | -0.92 | -0.52 |
| TMCO4 | 0.67 | 0.98 | 0.65 | 0.37 |
| KLHL24 | -0.8 | -1 | -0.65 | -0.75 |
| LOC400212 | -1.52 | -1.86 | -0.96 | -1.74 |
| PTDSS1 | -0.13 | 0.01 | 0 | -0.42 |
| LOC392238 (retired record) | 0.06 | 0.02 | 0.2 | -0.04 |
| LOC392314 (retired record) | -0.93 | -0.68 | -0.98 | -1.13 |
| OR2H1 | 0.77 | 1.07 | 0.51 | 0.73 |
| SGPL1 | 0.77 | 0.99 | 0.53 | 0.78 |
| CXCR2 | 1.2 | 1.51 | 0.96 | 1.14 |
| NPY4R | -0.28 | -0.11 | -0.35 | -0.38 |
| PROC | 0.66 | 0.47 | 0.9 | 0.62 |
| PDCL3P4 | 2.95 (active) | 3.1 | 2.56 | 3.18 |
| HBM | -0.2 | -0.16 | -0.34 | -0.1 |
